In paper PMC10447463, “Data-mining unveils structure–property–activity correlation of viral infectivity enhancing self-assembling peptides” (Nature Communications, 2023):

Tested on: HIV-1 infection of TZM-bl cells
Assay: HIV-1 infectivity enhancement assay, β-galactosidase luminescence
Format: cell-based

QCKAKAQANM [CK23]
n-fold to virus (Feb2021) (Feb2021, 1.3 µM value relative to virus only (0 µM)): 0.6145
Log10 of Rel to EFC (Feb2021) (Feb2021, Log10 of infectivity relative to EF-C): -1.835
Absolute Infectivity / RLU /s (Feb2021) (Feb2021, figures match the 1.3 µM column): 563.3 RLU /s
n-fold to virus (Feb2021) (Feb2021, infectivity relative to virus only): 0.6145
Log10 of Rel to EFC (Feb2021) (Feb2021, log10 of infectivity relative to EF-C): -1.835
Rel-to EFC (Feb-2021) (Feb2021, n-fold enhancement relative to EF-C): 0.01463
Rel-to EFC (Feb-2021) (Feb2021, n-fold infectivity relative to EF-C): 0.01463
Absolute Infectivity / RLU /s (Feb2021) (Feb2021, unrounded values of the 1.3 µM column): 563.3 RLU /s
n-fold to virus (Feb2021) (Feb2021 run, infectivity n-fold relative to virus alone): 0.6145
Log10 of Rel to EFC (Feb2021) (Feb2021 run, log10 of infectivity relative to EF-C): -1.835
Rel-to EFC (Feb-2021) (Feb2021 run, n-fold infectivity relative to EF-C): 0.01463
infectivity (infectivity class (low / medium / high) of each library peptide, main list in c1-c6, same classes repeated in sub-lists of sequences containing the hydrophobicity/charge patterns P+,H0,P+,H0,P0,H0,P0, P+,H0,P0,H0,P0,H0,P0, P+,H0,P0,H0): low
Log10 Inf. rel. to EF-C (log10 of HIV-1 infection of TZM-bl cells relative to EF-C, Fig S15 source data, asymmetric std dev errors): -1.835

QCKAKAQANM
Log10 Inf. rel. to EF-C (log10 of HIV-1 infection of TZM-bl cells relative to EF-C (EF-C = 0)): -1.835
